From patent US6905680B2, “Methods of treating HIV infected subjects” (Genetics Institute, Inc., priority 1994, dated 2005)

Columns and labels:
Assay type in all cases: cell-based, human
[1] = tested on: CD28^+, CD4^+ T cells; test: Long term growth of CD4+ T cells in medium containing fetal calf serum (Example 2); conditions: RPMI 10% FCS
From the text: Another series of experiments tested whether the growth advantage of CD28 receptor stimulation was due to replacement of factors normally present in fetal calf serum.

[2] = tested on: peripheral blood lymphocytes; test: Immunophenotype of PBL propagated 16 days (Example 4); conditions: day 16; plastic immobilized anti-CD3 G19-4
From the text: To examine the subsets of T cells that are expanded, PBL were propagated for 16 days using either anti-CD3 and IL-2 or anti-CD3 and anti-CD28. […] Mononuclear cells were isolated from blood by ficoll hypaque density gradient centrifugation. The cells were stained with CD4 and CD8 monoclonal antibodies, and analyzed for the percent positive cells on day 0. […] The cells were isolated from culture on day 16, and repeat staining for CD4 and CD8 antigens was done by flow cytometry. Data was gated on the lymphocyte population by forward angle light scatter and side scatter. By this analysis, the % CD4 and CD8 cells were 8.0% and 84.5% in the cells grown in IL-2, and 44.6% and 52.5% in the cells grown in CD28.

[3] = tested on: CD4^+ T cells; test: Immunophenotype of enriched CD4+ T cells after 26 days in culture (Example 4); conditions: day 26 of culture, with anti-CD3
[4] = tested on: CD28^+/CD4^+ T cells; test: Cytokines secreted by expanded T cells, ELISA/bioassay (Example 6); conditions: with anti-CD3

Substance: IL-2: interleukin 2 added as exogenous growth factor, used with anti-CD3
- fold expansion of the initial culture [1]: 10,000 fold
- % CD4 cells [2]: 8.0%
- % CD8 cells [2]: 84.5%
- predominant cell phenotype [3]: predominantly CD8^+
- GM-CSF ([4]; stimulation cycle S1): 2303 pg/mL
- IFN-γ ([4]; stimulation cycle S1): 1458 pg/mL
- IL-2 ([4]; stimulation cycle S1): 20714 pg/mL
- IL-4 ([4]; stimulation cycle S1): 16 pg/mL
- TNFα ([4]; stimulation cycle S1): 789 pg/mL
- GM-CSF ([4]; stimulation cycle S2): 51251 pg/mL
- IFN-γ ([4]; stimulation cycle S2): 16600 pg/mL
- IL-2 ([4]; stimulation cycle S2): 20250 pg/mL
- IL-4 ([4]; stimulation cycle S2): 964 pg/mL
- TNFα ([4]; stimulation cycle S2): 3221 pg/mL
- GM-CSF ([4]; stimulation cycle S3): 86418 pg/mL
- IFN-γ ([4]; stimulation cycle S3): 8617 pg/mL
- IL-2 ([4]; stimulation cycle S3): 21282 pg/mL
- IL-4 ([4]; stimulation cycle S3): 1153 pg/mL
- TNFα ([4]; stimulation cycle S3): 2899 pg/mL
